Measured values from several laboratories, pooled; numbers as filed in NIAID ChemDB.

Shared fields: host cell toxicity; read-out: CC50

CCn: concentration that lowers growth or viability of the cells by n%.

structure | cells | method | value
CCOC(=O)C1=C(CN2CC(F)(F)[C@@H]3[C@H]2CON3C[C@@H](OC)C(C)(C)C(=O)O)NC(c2nccs2)=N[C@H]1c1ccc(F)c(F)c1Cl | HepG2.2.15 | WST / absorbance | 32.4 µM
O=C/C=C/c1ccc2ccccc2n1 | CEM-4fx | MTT | 1 µM
CC(C)CN(C[C@@H](O)[C@H](Cc1ccccc1)NC(=O)[C@]12CC[C@@H](C)[C@H](C)[C@H]1C1=CC[C@@H]3[C@@]4(C)CCC(=O)C(C)(C)[C@@H]4CC[C@@]3(C)[C@]1(C)CC2)S(=O)(=O)c1ccc(N)cc1 | HUVEC | absorbance | >100 µM
CCOC(=O)CCCCCOc1cccc(CN(C(=O)c2ccc(-c3ccc4ccccc4c3)cc2)C(C)C)c1 | BJ | - | >20 µM
CC(C)CN(C[C@@H](O)[C@H](Cc1ccccc1)NC(=O)[C@]12CC[C@@H](C)[C@H](C)[C@H]1C1=CC[C@@H]3[C@@]4(C)C[C@@H](O)[C@@H](O)[C@@](C)(CO)[C@@H]4CC[C@@]3(C)[C@]1(C)CC2)S(=O)(=O)c1ccc([N+](=O)[O-])cc1 | HUVEC | absorbance | >100 µM
C(=C\c1ccc2ccccc2n1)/c1ccc2ccccc2n1 | CEM-4fx | MTT | >300 µM
C=CCCC(=O)NC[C@H](O)c1ccc2c(c1)OCO2 | RAJI | - | <7.5 µM
C[Si](C)(C)C#Cc1ccc2ccccc2n1 | CEM-4fx | MTT | 1.8 µM
COc1ccc(N(C)C(=O)[C@H](Cc2cc(F)cc(F)c2)NC(=O)CN2c3ccccc3N(CC(=O)N[C@@H](Cc3cc(F)cc(F)c3)C(=O)N(C)c3ccc(OC)c(F)c3)S2(=O)=O)cc1F | MT-2 | XTT | 100 µM
COc1cc2c(cc1C(C)NC/C=C/c1ccccc1)C=CC(C)(C)O2 | L6 rat skeletal myoblasts | - | 4.41 µM
C/C(=N\NC(=O)c1ccncc1)c1ccccc1O | HEL cells | MTT | 0.4 µg/mL
CN(C(=O)[C@H](Cc1cc(F)cc(F)c1)NC(=O)c1ccc(F)c(C(=O)N[C@@H](Cc2cc(F)cc(F)c2)C(=O)N(C)c2ccc(C3CC3)cc2)c1)c1ccc(C2CC2)cc1 | MT-2 | XTT | 100 µM
COC(=O)C1=C(CN2CC(F)(F)[C@H]3[C@@H]2CCN3CC[C@@](C)(O)C(=O)O)NC(c2nccs2)=N[C@H]1c1ccc(F)c(F)c1Cl | HepG2.2.15 | WST / absorbance | >50 µM
CCOC(OCC)C(=O)NCCc1ccc(OC)c(OC)c1 | HEK 293 | - | <7.5 µM
COc1ccc(N(C)C(=O)[C@H](Cc2ccccc2)NC(=O)Cn2c(=O)c3ccccc3n(CC(=O)N[C@@H](Cc3ccccc3)C(=O)N(C)c3ccc(OC)cc3)c2=O)cc1 | MT-2 | XTT | 100 µM
CN(C)CCCOc1ccc2nc(N)n(CCCN(C)C)c2c1 | Huh7.5 | - | 665 µM
CCC/C=C/c1ccc2ccccc2n1 | CEM-4fx | MTT | 8.5 µM
COc1ccc(S(=O)(=O)N(CC(C)C)C[C@@H](O)[C@H](Cc2ccccc2)NC(=O)[C@]23CC[C@@H](C)[C@H](C)[C@H]2C2=CC[C@@H]4[C@@]5(C)CC[C@@H](O)C(C)(C)[C@@H]5CC[C@@]4(C)[C@]2(C)CC3)cc1 | HUVEC | absorbance | >100 µM
CN(C(=O)[C@H](Cc1cc(F)cc(F)c1)NC(=O)CN1c2ccccc2N(CC(=O)N[C@@H](Cc2cc(F)cc(F)c2)C(=O)N(C)c2ccc3snnc3c2)S1(=O)=O)c1ccc2snnc2c1 | MT-2 | XTT | 100 µM
CCOC(=O)CCCCCOc1cccc(CNC(C)C)c1 | HEK 293 | - | >20 µM
O=C(O)c1ccc(N2C(=O)c3cccc([N+](=O)[O-])c3C2=O)cc1O | SH-SY5Y | visual reading / absorbance | >100 µg/mL
CC(C)CN(C[C@@H](O)[C@H](Cc1ccccc1)NC(=O)[C@]12CC[C@@H](C)[C@H](C)[C@H]1C1=CC[C@@H]3[C@@]4(C)C[C@@H](O)[C@@H](O)[C@@](C)(CO)[C@@H]4CC[C@@]3(C)[C@]1(C)CC2)S(=O)(=O)c1ccc(N)cc1 | HUVEC | absorbance | >100 µM
CN(C(=O)[C@H](Cc1cc(F)cc(F)c1)NC(=O)NS(=O)(=O)N[C@@H](Cc1cc(F)cc(F)c1)C(=O)N(C)c1ccc2c(c1)ncn2C)c1ccc2c(c1)ncn2C | MT-2 | XTT | 100 µM
COC(=O)C1=C(CN2CC(F)(F)[C@H]3[C@@H]2CCN3CC[C@](C)(O)C(=O)O)NC(c2nccs2)=N[C@H]1c1ccc(F)c(F)c1C | HepG2.2.15 | WST / absorbance | >25 µM
OC/C=C/c1ccc2ccccc2n1 | CEM-4fx | MTT | 1.7 µM
OCCOCn1cnc2cc(Cl)c(Cl)cc21 | KB | - | >100 µM
CC(CCC(=O)N[C@@H](Cc1ccc(O)cc1)C(=O)O)C1CCC2C3CCC4C[C@H](O)CCC4(C)C3C[C@H](O)C12C | VK2/E6E7 | XTT | 227.5 µg/mL
CCOC(=O)C1=C(CN2CC(F)(F)[C@@H]3[C@H]2CON3CCC(C)(F)C(=O)O)NC(c2nccs2)=N[C@H]1c1cccc(F)c1C | HepG2.2.15 | WST / absorbance | >100 µM
CN(C(=O)[C@H](Cc1cc(F)cc(F)c1)NC(=O)NS(=O)(=O)N[C@@H](Cc1cc(F)cc(F)c1)C(=O)N(C)c1cccnc1)c1cccnc1 | MT-2 | XTT | 100 µM
BrC(Br)=Cc1ccc2ccccc2n1 | CEM-4fx | MTT | 5.3 µM
COc1ccc(S(=O)(=O)N(CC(C)C)C[C@@H](O)[C@H](Cc2ccccc2)NC(=O)[C@]23CC[C@@H](C)[C@H](C)[C@H]2C2=CC[C@@H]4[C@@]5(C)CCC(=O)C(C)(C)[C@@H]5CC[C@@]4(C)[C@]2(C)CC3)cc1 | HUVEC | absorbance | >100 µM
C=C(C)[C@@H]1CCC2(C(=O)OC)CC[C@]3(C)C(CCC4[C@@](C)(CC#N)C(C(C)(C)C(=O)NCC(=O)OCC)CC[C@]43C)C12 | MS | MTT | >100 µM
C/C(=N\NC(=O)c1ccncc1)c1cccc([N+](=O)[O-])c1 | HEL cells | MTT | 13 µg/mL
OCC(CO)OCn1cnc2c(Cl)c(Cl)ccc21 | KB | - | >100 µM
C=CCCC1=NCC(OC(C)=O)c2cc(OC)c(OC)cc21 | RAJI | - | <7.5 µM
OCCOCn1c(Cl)nc2c(Cl)c(Cl)ccc21 | KB | - | >100 µM
CN(C(=O)[C@H](Cc1cc(F)cc(F)c1)NC(=O)c1cccc(S(=O)(=O)N[C@@H](Cc2cc(F)cc(F)c2)C(=O)N(C)c2ccc3scnc3c2)c1)c1ccc2scnc2c1 | MT-2 | XTT | 100 µM
CCOC(=O)C1=C(CN2CC(F)(F)[C@@H]3[C@H]2CON3C[C@H](O)C(C)(C)C(=O)O)NC(c2nccs2)=N[C@H]1c1ccc(F)c(F)c1F | HepG2.2.15 | WST / absorbance | >100 µM
CCCNCc1cccc(OCCCCCC(=O)OCC)c1 | RAJI | - | >20 µM
OCCOCn1c(Br)nc2c(Cl)c(Cl)ccc21 | HFF | visual reading | >100 µM

A second listing of 3 rows from above:

structure,cells,method,value
CN(C(=O)[C@H](Cc1cc(F)cc(F)c1)NC(=O)c1cccc(S(=O)(=O)N[C@@H](Cc2cc(F)cc(F)c2)C(=O)N(C)c2ccc3scnc3c2)c1)c1ccc2scnc2c1,MT-2,XTT,100 µM
CC(C)CN(C[C@@H](O)[C@H](Cc1ccccc1)NC(=O)[C@]12CC[C@@H](C)[C@H](C)[C@H]1C1=CC[C@@H]3[C@@]4(C)C[C@@H](O)[C@@H](O)[C@@](C)(CO)[C@@H]4CC[C@@]3(C)[C@]1(C)CC2)S(=O)(=O)c1ccc(N)cc1,HUVEC,absorbance,>100 µM
CCOC(=O)CCCCCOc1cccc(CNC(C)C)c1,HEK 293,-,>20 µM

Conditions beyond the fields shown may differ between rows. Blank or dashed fields: not listed here.